Assay results: patent US10526278B2, “Inhibitors of quorum sensing receptor LasR” (priority 2017, dated 2020)
pIC50: −log10 of the molar value.

By UniProt entry, the sequences of proteins in these tests, tags left out.
UniProt P25084, whole entry: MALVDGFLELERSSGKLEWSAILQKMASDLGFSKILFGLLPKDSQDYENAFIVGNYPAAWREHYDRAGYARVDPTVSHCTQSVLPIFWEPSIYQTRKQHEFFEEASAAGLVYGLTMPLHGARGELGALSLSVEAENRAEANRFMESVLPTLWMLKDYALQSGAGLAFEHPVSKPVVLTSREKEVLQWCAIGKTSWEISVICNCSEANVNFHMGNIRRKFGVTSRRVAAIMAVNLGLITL

Legend:
[1] = biological target: LasR (Pseudomonas aeruginosa, UniProt P25084); conditions: measured vs 25 nM OdDHL; for pIC50: read-out: IC50 (95% CL)
[2] = test system: P. aeruginosa PAO1; test: Elastase B production in P. aeruginosa PAO1 culture supernatants (elastin-Congo red); conditions: FIG. 12A; for inhibition of elastase in combination with PqsR inhibitor M64: compound 100 μM plus M64 20 μM
Experimental: FIG. 12A is a graph comparing inhibition of elastase (as % relative to DMSO) for certain compounds of the invention. The amount of indicated compound added was 100 μM. M64 alone or in combination was added in the amount of 20 μM. The assay is conducted as described in Welsh et al. (2016) for compounds shown as well as certain compounds in combination with compound M-64 (Starkey, M. et al. (2014)):
The amount of elastase B in P. aeruginosa culture supernatants was measured following a reported protocol (Welsh et al., 2017 and Geske et al., 2007b) with modifications. A 10 mL overnight culture of P. aeruginosa PAO1 was grown for 16 hr. An inoculating culture was prepared by diluting the overnight culture 1:100 into freshly prepared assay medium, and 2 mL aliquots of this subculture were added to each test tube (0.5% DMSO, final). The cultures were grown for 17 hr, and the final cell density measured by reading OD600. Aliquots of the final culture supernatant (50 μL) were added to the wells of a clear, plastic 96-well plate. To each well, 150 μL of 0.5% (w/v) elastin-Congo red conjugate (Elastin Products) in Tris buffer (10 mM Tris-HCl, 1 mM CaCl2) [pH 7.2]) was added. The plate was sealed with a polypropylene storage mat (Costar 3080) and incubated in a 37″C shaking incubator (200 rpm) attached to a Labquake rotator for 24 hr (in LB medium).
To quantify elastase B activity, the undigested elastin was pelleted by centrifugation of the assay plate at […] for 10 min, after which […] of the supernatant was transferred to a new, clear 96-well plate, and the absorbance at 490 nm measured. Media background absorbance (measured from a “no bacteria” control) was subtracted, the resulting values growth normalized by dividing by the final OD600, and the data plotted relative to a DMSO-treated positive control.

| SMILES | Maximum Inhibition (95% CL) [1] | pIC50 [1] | inhibition of elastase in combination with PqsR inhibitor M64 [2] | inhibition of production of virulence factor elastase ([2]; compound alone 100 μM, % elastase relative to DMSO) |
| --- | --- | --- | --- | --- |
| CCCCCCCCCCNC(=O)CC(=O)c1ccccc1 | 76 (85-67) % | 5.96 | – | – |
| CCCCCCCCCCCCNC(=O)CC(=O)c1ccco1 | 82 (85-78) % | 6.30 | inhibit elastase synergistically | – |
| CCCCCCCCCNC(=O)CC(=O)c1cccc(O)c1 | 100% | 5.33 | inhibit elastase synergistically | – |
| CCCCCCCCCNC(=O)CCc1ccccc1 | 80 (87-73) % | 5.12 | – | – |
| CCCCCCCCCNC(=O)CC(=O)c1ccco1 | 74 (81-69) % | 6.22 | inhibit elastase synergistically | inhibits the production of virulence factor elastase |
| CCCCCCCCCNC(=O)CC(=O)c1cccc(F)c1 | 84 (100-70) % | 5.06 | – | – |
| CCCCCCCCCNC(=O)CC(=O)c1ccccc1F | 74 (93-76) % | 5.49 | – | – |
| CCCCCCCCCCCCNC(=O)CC(=O)c1ccccc1 | 83 (88-78) % | 5.60 | – | – |
